Assays:
[1] = tested on: PBMC from SARS-CoV-2 convalescent donors; experiment: Memory T cell responses, 4-day IFNγ ELISpot assay; assay type: cell-based, human; conditions: SLP 3 μM, versus control SLP
PBMC from healthy donors = experiment: Memory T cell responses, 4-day IFNγ ELISpot assay; assay type: cell-based, human; conditions: SLP 3 μM, versus control SLP

Sequence	Stimulation Index (SI) ([1]; convalescent donor 1001)	Stimulation Index (SI) ([1]; convalescent donor 1003)	Stimulation Index (SI) ([1]; convalescent donor 1004)	Stimulation Index (SI) ([1]; convalescent donor 1005)	Stimulation Index (SI) ([1]; convalescent donor 1006)	Stimulation Index (SI) ([1]; convalescent donor 1007)	Stimulation Index (SI) ([1]; convalescent donor 1008)	Stimulation Index (SI) ([1]; convalescent donor 1010)	Stimulation Index (SI) ([1]; convalescent donor 1108)	Stimulation Index (SI) (PBMC from healthy donors; healthy donor 2001)	Stimulation Index (SI) (PBMC from healthy donors; healthy donor 2002)	Stimulation Index (SI) (PBMC from healthy donors; healthy donor 2003)
ALNTLVKQLSSNFGAISSVLNDILSRLDKV	5.80	2.00	0.27	0.67	5.60	1.70	1.25	6.27	11.00	0.00	0.00	1.22
GNGGDAALALLLLDRLNQLESKMSGKGQ	17.00	1.00	0.38	13.67	17.00	1.00	0.00	1.45	3.00	0.33	0.67	0.67
HSTQDLFLPFFSNVTWFHAIHVSGTN	2.20	0.00	0.14	0.33	2.20	4.20	1.00	0.27	8.00	1.33	0.00	0.56
PLVDLPIGINITRFQTLLALHRSYLTPGDSSSG	1.00	8.00	0.11	1.67	1.00	5.10	0.50	0.73	4.00	0.67	0.33	0.89
SSPDDQIGYYRRATRRIRGGDGKMKDLS	0.40	3.00	0.19	0.67	0.40	0.90	2.75	0.18	4.00	0.00	0.67	0.78
VLNDILSRLDKVEAEVQIDRLITGRLQSLQTY	1.20	4.00	0.22	0.33	1.20	0.90	1.00	0.64	64.00	0.00	0.00	0.56

Source: patent publication US20230143215A1 (priority 2020, published 2023)
